Only a part is listed here, and it is no random draw. The source made the active and inactive calls. Cut-off read from the data, not from the text of the source: active = z-score below about -3; inactive = the rest.
Each molecule was assayed against Genome polyprotein (West Nile virus) (UniProt P06935) (assay: inhibitors of WNV NS2B-NS3 protease, primary screen, biochemical, fluorogenic substrate (AID 577)). Settings: fluorogenic substrate Ex360/Em465, active compounds read low.

By UniProt entry, the sequences of proteins in these tests, tags left out. Residues count along the entry.
UniProt P06935, 1371-1501 limits assumed: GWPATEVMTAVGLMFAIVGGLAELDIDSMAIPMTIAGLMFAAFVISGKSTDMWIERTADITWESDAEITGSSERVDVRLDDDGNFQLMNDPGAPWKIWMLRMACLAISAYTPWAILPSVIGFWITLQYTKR
UniProt P06935, 1502-1679 limits assumed: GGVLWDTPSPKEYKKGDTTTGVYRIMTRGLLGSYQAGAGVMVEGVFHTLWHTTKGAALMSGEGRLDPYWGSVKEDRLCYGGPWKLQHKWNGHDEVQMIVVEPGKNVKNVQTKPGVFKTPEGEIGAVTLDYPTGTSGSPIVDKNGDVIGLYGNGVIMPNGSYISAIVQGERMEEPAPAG

Compound | z-score
COc1ccc(NC2CCN(CCc3ccccc3)CC2)c(OC)c1 | inactive: 0.02
O=C(OC1CN2CCC1CC2)C1c2ccccc2Oc2ccccc21 (configuration not stated) | inactive: 0.8
N#CC1(Nc2ccccc2)CCN(CCc2ccccc2)CC1 | inactive: -0.9
N/C(=N\O)c1c(N)no[n+]1[O-] | inactive: -0.34
CCC(CO)(C(=O)OC1CN2CCC1CC2)c1ccccc1 (configuration not stated) | inactive: -0.09
CCOc1ncccc1C(=O)NCC1(N2CCOCC2)CCCCC1 | inactive: 0.41
Fc1ccccc1NC1CCN(Cc2ccccc2)CC1 | inactive: 0.76

From PubChem BioAssay AID577 (University of Pittsburgh Molecular Library Screening Center, 2007)
